Data on 28 compounds can be found in PubChem BioAssay AID540299 (ICCB-Longwood Screening Facility, Harvard Medical School, 2011).

Sequences of proteins named here, by UniProt entry; tags and fusion partners are left off.
UniProt P9WNP5, whole entry: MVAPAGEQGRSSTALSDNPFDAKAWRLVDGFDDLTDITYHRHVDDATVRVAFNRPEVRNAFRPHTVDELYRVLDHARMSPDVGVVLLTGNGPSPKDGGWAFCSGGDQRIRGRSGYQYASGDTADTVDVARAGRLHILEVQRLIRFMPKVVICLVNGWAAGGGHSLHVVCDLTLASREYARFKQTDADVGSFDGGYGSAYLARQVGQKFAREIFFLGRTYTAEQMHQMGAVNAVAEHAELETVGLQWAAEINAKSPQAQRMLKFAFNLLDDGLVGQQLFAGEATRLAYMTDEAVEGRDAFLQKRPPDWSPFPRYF

The list shows a part of the results, in another mix than the full data. Activity calls are given as the source filed them. No stated cut-off is given here; in the data, active means inhibition above about 21% (passing the limit was not always enough); inactive means the rest.

In the assay the target is 1,4-dihydroxy-2-naphthoyl-CoA synthase (Mycobacterium tuberculosis (strain ATCC 25618 / H37Rv)) (UniProt P9WNP5). Kind of assay: M. tuberculosis MenB inhibitors, primary screen, biochemical, absorbance (AID 540299). The settings on record: MenB enzyme assay, absorbance read-out; hits give high values; concentration not given here.
In the case of `O=c1[nH]c2ccccc2n1C1CCN(CCCC(c2ccc(F)cc2)c2ccc(F)cc2Cl)CC1` (stereo not drawn), the inhibition (as a rule, the relative decrease from the control value, in per cent) is inactive: -15.8%. Under `CC1CN(CCc2ccccc2)C(C)CC1=O` (stereo not drawn) stands inactive: -11%; under `CN(C)c1ccc(C(=O)NCC2(N3CCCCC3)CCCCC2)cc1`, inactive: -7.14%; under `CCN1CCC(Nc2ccc(F)cc2)CC1`, inactive: -22%. Under `CCOc1ncccc1C(=O)NCC1(N2CCCCC2)CCCCC1` stands inactive: -29%; under `O=C(NCC1(N2CCCCC2)CCCCC1)c1n[nH]c2ccccc12`, inactive: 5.33%; under `CCOc1ncccc1C(=O)NCC1(N(C)C)CCCCC1`, inactive: -30.8%. With `CN1CCC(Nc2ccc(F)cc2)CC1`, the inhibition is inactive: -1.95%. Under `O=C1CCN(CCc2ccccc2)CC1` stands inactive: -6.15%; under `NC(=O)C1(Nc2ccccc2)CCN(Cc2ccccc2)CC1`, inactive: 3.84%.

In the case of `Cc1c(C(=O)NCC2(N3CCOCC3)CCCCC2)oc2c(Cl)cccc12`, the inhibition was inactive: 3.24%. In the case of `CCCN1CCC(Nc2cc(OC)cc(OC)c2)CC1` it was inactive: 5.45%; in that of `O=C(NCC1(N2CCOCC2)CCCCC1)c1cc2ccccc2cc1O`, inactive: -46.5%.

`CC(C)(C)OC(=O)N1CCC(Nc2ccc(OC(F)(F)F)cc2)CC1`: the inhibition is inactive: 2.2%.

As to `Cn1nc(C(=O)NCC2(N3CCCCC3)CCCCC2)c2ccccc2c1=O`, the inhibition is inactive: 7.98%. On to `Cc1ccc(C(=O)NCC2(N(C)C)CCCCC2)o1`, for which the inhibition is inactive: -5.71%. Under `c1ccc(CN2CCC(Nc3ccc4c(c3)OCO4)CC2)cc1` stands inactive: 7.33%; under `NC(=O)C1(Nc2ccc(F)cc2)CCNCC1`, inactive: -0.23%.

On to `FC(F)(F)Oc1ccc(NC2CCNCC2)cc1`, for which the inhibition is inactive: 8.91%. Under `CC1CN(CCc2ccccc2)CCC1=O` (stereo not drawn) stands inactive: -17.9%; under `Cc1cnc(C(=O)NCC2(N3CCCCC3)CCCCC2)cn1`, inactive: -12.1%; under `N#CC1(Nc2ccccc2)CCN(Cc2ccccc2)CC1`, inactive: -3.39%. Under `COc1ccc(C(=O)NCC2(N3CCCCC3)CCCCC2)cc1` stands inactive: -28.1%; under `CCCN1CCC(Nc2ccc(OC)c(OC)c2)CC1`, inactive: -10.3%; under `CCOC(=O)N1CCC(Nc2cccc(C)c2)CC1`, inactive: -14.5%. Under `CCOC(=O)N1CCC(Nc2ccc(F)cc2)CC1` stands inactive: -10.3%; under `O=C1CCN(Cc2ccccc2)CC1`, inactive: -31.5%; under `O=C(NCC1(N2CCOCC2)CCCCC1)c1ccc2nc[nH]c2c1`, inactive: -0.58%.
